Source: patent US5641633

Protein sequences, listed by entry. Tags and fused reporters are not part of them. Residues count along the entry.
UniProt P00582, 324-928: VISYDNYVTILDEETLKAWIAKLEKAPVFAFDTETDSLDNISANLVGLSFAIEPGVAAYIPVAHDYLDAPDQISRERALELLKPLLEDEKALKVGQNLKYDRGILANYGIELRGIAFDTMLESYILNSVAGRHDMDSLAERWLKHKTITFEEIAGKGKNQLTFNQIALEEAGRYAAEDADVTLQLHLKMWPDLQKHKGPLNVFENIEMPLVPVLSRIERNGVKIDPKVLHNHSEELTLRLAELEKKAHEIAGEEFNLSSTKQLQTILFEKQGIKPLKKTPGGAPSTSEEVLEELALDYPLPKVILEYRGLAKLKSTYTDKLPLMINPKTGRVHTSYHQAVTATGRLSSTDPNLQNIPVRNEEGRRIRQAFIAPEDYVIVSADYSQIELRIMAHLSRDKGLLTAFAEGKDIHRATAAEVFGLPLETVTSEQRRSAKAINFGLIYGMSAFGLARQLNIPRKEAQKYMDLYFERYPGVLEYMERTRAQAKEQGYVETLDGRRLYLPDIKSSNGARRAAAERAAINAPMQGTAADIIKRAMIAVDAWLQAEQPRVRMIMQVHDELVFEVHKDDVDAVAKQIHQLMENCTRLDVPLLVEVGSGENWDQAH

Target: Klenow fragment of DNA polymerase I, exonuclease deficient (Escherichia coli) (UniProt P00582)
Experiment: FP
Conditions: 154 mP after vs 114 mP before Klenow exo- at 1000 genomes, 37 C; no-target control 60 vs 57 mP; Bca and BsoBI also present; EDTA; purified recombinant protein; protein details: United States Biochemical; label: 5' …

“ATCCGTATGGTGGATAACGTCTTTCA (double strand)”: binds.

The exact form of at least one protein or probe is not confirmed.
